From publication PMC7114863 (Journal of Hepatology, 2009) come the findings set out here.

Assay [1] concerns VX-950^res and BILN-2061^res replicon. Kind of assay: Anti-HCV assay, VX-950 and BILN-2061 double resistant replicon. To be noted: mean ± SD.
A further assay deals with 2′-C-MeCyt^res replicon. In words: Anti-HCV assay, 2′-C-MeCyt resistant replicon. (A replicon is a self-replicating genome or part of one, used to study replication in cells.)
The test system of assay [2] is 4′-Azidocytidine^res replicon. Kind of assay: Anti-HCV assay, 4′-azidocytidine resistant replicon.
The next assay has as its system BILN-2061^res replicon. Kind of assay: Anti-HCV assay, BILN-2061 resistant replicon.

Turning to “IFNα 2b: recombinant IFNα 2b (intron® A) purchased from Schering Plough”, in assay [1], the “EC50, VX-950^res and BILN-2061^res” value was 0.62 ± 0.37 IU/ml. Moreover, the “EC50, 2′-C-MeCyt^res” value with 2′-C-MeCyt^res replicon (mean ± SD) is reported as 0.80 ± 0.46 IU/ml. Besides, the “fold resistance, 2′-C-MeCyt^res” value in the assay with 2′-C-MeCyt^res replicon (versus wild-type replicon) was “(3.3)”. Further, the “EC50, 4′-Azidocytidine^res” value in assay [2] (mean ± SD) was determined as 1.4 ± 0.29 IU/ml. Further, the “fold resistance, 4′-Azidocytidine^res” value in assay [2] (versus wild-type replicon) was “(5.8)”. In the assay on BILN-2061^res replicon (mean ± SD), the “EC50, BILN-2061^res” value was determined as 1.2 ± 0.83 IU/ml. The “fold resistance, BILN-2061^res” value in the assay with BILN-2061^res replicon (versus wild-type replicon) was “(5)”.
